From article PMC9302720, “The structural role of SARS-CoV-2 genetic background in the emergence and success of spike mutations: The case of the spike A222V mutation” (2022) come the findings set out here.

In the assay the target is SARS-CoV-2 protein S ectodomain, S:D614G variant (SARS-CoV-2 | not stated) (UniProt P0DTC2). The assay is described as follows: BLI. On the technique in general: Biolayer interferometry detects binding as a change in optical thickness at a sensor tip.

As a reminder, the Kd is the free concentration of one partner at which half of the binding sites on the other are occupied at equilibrium, for simple one-to-one binding. For orientation: koff means the rate constant with which the complex falls apart. For orientation: kon means a measure of how fast the partners come together. As for “N-terminal peptidase domain of human ACE2 (domain or fragment)”, the Kd amounted to 65.7 nM, the koff came out at 0.0202 s⁻¹ and the kon was determined as 303000 M⁻¹ s⁻¹.
